Source: patent US10941121B2 (AZIENDA OSPEDALIERA UNIVERSITARIA SENESE, priority 2015, dated 2021)

These compounds were tested on HIV (PBMC) (assay: HIV infectious cell culture system in PBMC, HIV-1 RNA in supernatant). Conditions: selectivity index, CC50 PBMC 72 h / EC50 HIV.

| SMILES | SI (HIV/PBMC) |
| --- | --- |
| CCCCc1cn(-c2ccc(NC(=O)Nc3ccccc3C)cc2)nn1 [Compound 20a, 1-(4-(4-butyl-1H-1,2,3-triazol-1-yl)phenyl)-3-o-tolylurea] | >33 |
| CCCCn1nnc(-c2ccc(NC(=O)Nc3ccccc3C)cc2)n1 [Compound 49, 1-(4-(2-butyl-2H-tetrazol-5-yl)phenyl)-3-(o-tolyl)urea] | >100 |
| CCCCc1cn(-c2cccc(S(=O)(=O)Nc3ccccc3C(F)(F)F)c2)nn1 [Compound 64d, 3-(4-butyl-1H-1,2,3-triazol-1-yl)-N-(2-(trifluoromethyl)phenyl)benzenesulfonamide] | 6.3 |
| CCOCc1cn(-c2cccc(S(=O)(=O)Nc3ccccc3C(F)(F)F)c2)nn1 [Compound 66d, 3-(4-(ethoxymethyl)-1H-1,2,3-triazol-1-yl)-N-(2-(trifluoromethyl)phenyl) benzenesulfonamide] | 27 |
| Cc1ccccc1NC(=O)Nc1cccc([N+](=O)[O-])c1 [EI01D, reference compound] | 10 |
